# Laboratory results published in patent US20080138835A1 (priority 2004, published 2008).
# Legend:
# S. epidermidis = assay: Serial passages in drug-containing broth (MIC); assay type: cell-based
# S. hemolyticus = assay: Serial passages in drug-containing broth (MIC); assay type: cell-based; settings: S. hemolyticus NRS116, MRSH, MupS
# S. pyogenes = assay: Serial passages in drug-containing broth (MIC); assay type: cell-based
smiles,measurement,setting,value
C/C(=C\C(=O)OCCCCCCCCC(=O)O)C[C@@H]1OC[C@H](C[C@@H]2O[C@H]2[C@@H](C)[C@H](C)O)[C@@H](O)[C@H]1O [Mupirocin],MIC After 20 passages,"S. epidermidis; S. epidermidis 936528, MRSE, HL-MupR","4,096 μg/ml"
same,MIC After 20 passages,"S. epidermidis; S. epidermidis 936606, MRSE, MupS",2 µg/mL
same,MIC After 20 passages,S. hemolyticus,1 µg/mL
same,MIC After 20 passages,"S. pyogenes; S. pyogenes ATCC19615, EryS",4 µg/mL
same,MIC After 20 passages,"S. pyogenes; S. pyogenes MB000143, EryR",0.5 µg/mL
same,susceptibility of laboratory-generated Compound 1-resistant mutants (cross-resistance),S. aureus mutants,still susceptible
